US20100016367A1, “BIS-PYRINIDIUM COMPOUNDS” (priority 2006, published 2010)

The chains behind the UniProt entries cited, without tags or fusion partners. Where a name states a change or a piece, a line headed by the entry shows the natural chain unless it says otherwise.
UniProt Q9P8P2: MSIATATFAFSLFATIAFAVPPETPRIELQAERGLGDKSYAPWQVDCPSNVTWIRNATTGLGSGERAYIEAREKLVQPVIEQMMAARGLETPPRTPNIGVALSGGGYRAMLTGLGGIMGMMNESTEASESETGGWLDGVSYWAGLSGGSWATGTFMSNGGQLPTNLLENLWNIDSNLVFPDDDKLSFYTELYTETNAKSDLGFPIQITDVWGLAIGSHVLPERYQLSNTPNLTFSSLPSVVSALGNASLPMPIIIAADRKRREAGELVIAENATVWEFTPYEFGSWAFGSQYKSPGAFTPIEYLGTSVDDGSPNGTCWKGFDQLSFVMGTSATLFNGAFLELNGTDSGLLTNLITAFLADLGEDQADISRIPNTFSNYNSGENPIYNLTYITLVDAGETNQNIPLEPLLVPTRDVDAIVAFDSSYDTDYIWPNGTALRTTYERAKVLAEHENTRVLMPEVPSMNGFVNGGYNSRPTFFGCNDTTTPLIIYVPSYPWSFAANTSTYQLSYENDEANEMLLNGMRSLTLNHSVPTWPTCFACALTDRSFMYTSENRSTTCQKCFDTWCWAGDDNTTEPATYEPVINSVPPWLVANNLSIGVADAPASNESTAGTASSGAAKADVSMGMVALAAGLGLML

How the values were obtained:
C. neoformans ATCC 90112 = assay: Antifungal susceptibility assay, MIC; type: cell-based, Cryptococcus neoformans
C. albicans ATCC 10231 = assay: Antifungal susceptibility assay, MIC; type: cell-based, Candida albicans
C. albicans ATCC 90028 = assay: Antifungal MIC, broad spectrum; type: cell-based, Candida albicans; conditions: Table 1b
C. krusei 04-202328 = assay: Antifungal MIC, broad spectrum; type: cell-based, Candida krusei; conditions: Table 1b
C. krusei ATCC 6258 = assay: Antifungal MIC, broad spectrum; type: cell-based, Candida krusei; conditions: Table 1b
C. krusei ATCC 9258 = assay: Antifungal MIC, broad spectrum; type: cell-based, Candida krusei; conditions: Table 1b
[1] = system: C. parapsilosis 04-202398; assay: Antifungal MIC, broad spectrum; type: cell-based, Candida parapsilosis; conditions: Table 1b
[2] = system: C. parapsilosis ATCC 22019; assay: Antifungal MIC, broad spectrum; type: cell-based, Candida parapsilosis; conditions: Table 1b
C. glabrata 04-202345 = assay: Antifungal MIC, broad spectrum; type: cell-based, Candida glabrata; conditions: Table 1b
C. tropicalis 04-202361 = assay: Antifungal MIC, broad spectrum; type: cell-based, Candida tropicalis; conditions: Table 1b
C. neoformans 05-202523 = assay: Antifungal MIC, broad spectrum; type: cell-based, Cryptococcus neoformans; conditions: Table 1b
C. gattii 05-200122 = assay: Antifungal MIC, broad spectrum; type: cell-based, Cryptococcus gattii; conditions: Table 1b
A. fumigatus 05-203114 = assay: Antifungal MIC, broad spectrum; type: cell-based, Aspergillus fumigatus; conditions: Table 1b
A. fumigatus ATCC 204305 = assay: Antifungal MIC, broad spectrum; type: cell-based, Aspergillus fumigatus; conditions: Table 1b
A. flavus 05-203758 = assay: Antifungal MIC, broad spectrum; type: cell-based, Aspergillus flavus; conditions: Table 1b
A. flavus ATCC 204304 = assay: Antifungal MIC, broad spectrum; type: cell-based, Aspergillus flavus; conditions: Table 1b
A. terreus 05-202844 = assay: Antifungal MIC, broad spectrum; type: cell-based, Aspergillus terreus; conditions: Table 1b
S. prolificans 05-203060 = assay: Antifungal MIC, broad spectrum; type: cell-based, Scedosporium prolificans; conditions: Table 1b
S. apiospermum 05-203100 = assay: Antifungal MIC, broad spectrum; type: cell-based, Scedosporium apiospermum; conditions: Table 1b
[3] = system: Cunninghamella berth 99-12187; assay: Antifungal MIC, broad spectrum; type: cell-based, Cunninghamella bertholletiae; conditions: Table 1b
[4] = system: Absidia corymbifera 04-200170; assay: Antifungal MIC, broad spectrum; type: cell-based; conditions: Table 1b
[5] = system: Exophiala jeanselmei 03-200268; assay: Antifungal MIC, broad spectrum; type: cell-based; conditions: Table 1b
[6] = system: Exophiala spinifera 03-200803; assay: Antifungal MIC, broad spectrum; type: cell-based; conditions: Table 1b
[7] = system: Fusarium solani 04-203102; assay: Antifungal MIC, broad spectrum; type: cell-based; conditions: Table 1b
[8] = system: Paecilomyces lilacinus 05-200601; assay: Antifungal MIC, broad spectrum; type: cell-based; conditions: Table 1b
[9] = system: Rhizopus oryzae 05-203111; assay: Antifungal MIC, broad spectrum; type: cell-based; conditions: Table 1b
Epidermophyton floccosum = assay: In-vitro activity against dermatophytes, MIC; type: cell-based; conditions: 5 isolates
Microsporum canis = assay: In-vitro activity against dermatophytes, MIC; type: cell-based; conditions: 5 isolates
Microsporum cookie = assay: In-vitro activity against dermatophytes, MIC; type: cell-based; conditions: 2 isolates
Microsporum gypseum = assay: In-vitro activity against dermatophytes, MIC; type: cell-based; conditions: 5 isolates
[10] = system: Trichophyton mentagrophytes; assay: In-vitro activity against dermatophytes, MIC; type: cell-based; conditions: 18 isolates
Trichophyton rubrum = assay: In-vitro activity against dermatophytes, MIC; type: cell-based; conditions: 20 isolates
Trichophyton soudanense = assay: In-vitro activity against dermatophytes, MIC; type: cell-based; conditions: 3 isolates
Trichophyton tonsurans = assay: In-vitro activity against dermatophytes, MIC; type: cell-based; conditions: 16 isolates
Trichophyton violaceum = assay: In-vitro activity against dermatophytes, MIC; type: cell-based; conditions: 3 isolates
[11] = target: Secretory Cryptococcal H99 Phospholipase B (PLB) (Cryptococcus neoformans, UniProt Q9P8P2); assay: Phospholipase inhibition, radiometric assay; type: biochemical, C. neoformans var. grubii; conditions: read-out: Concentration required for 50% inhibition of PLB; secreted PLB activity, pH 4.0, 37° C.
Escherichia coli 25922 = assay: In vitro antibacterial MIC; conditions: Gram-negative; listed as 1,12-bis(4-pentylpyridinium)dodecane
[12] = system: MRSA (methicillin resistant S. aureus); assay: In vitro antibacterial MIC; conditions: Gram-positive; listed as 1,12-bis(4-pentylpyridinium)dodecane
[13] = system: Pseudomonas aeruginosa 122; assay: In vitro antibacterial MIC; conditions: Gram-negative; listed as 1,12-bis(4-pentylpyridinium)dodecane
[14] = system: Staphylococcus aureus 25923; assay: In vitro antibacterial MIC; conditions: Gram-positive; listed as 1,12-bis(4-pentylpyridinium)dodecane
[15] = system: Streptococcus pneumonia 49619; assay: In vitro antibacterial MIC; conditions: Gram-positive; listed as 1,12-bis(4-pentylpyridinium)dodecane
[16] = system: VRE (Vancomycin resistant Enterococcus); assay: In vitro antibacterial MIC; conditions: Gram-positive; listed as 1,12-bis(4-pentylpyridinium)dodecane
[17] = system: Aspergillus terreus ATCC 03-232-378; assay: In vitro antifungal activity vs Amphotericin B; conditions: Table 2; listed as 1,12-bis(4-pentylpyridinium)dodecane
[18] = system: Fusarium solani 04-132-4207; assay: In vitro antifungal activity vs Amphotericin B; conditions: Table 2; listed as 1,12-bis(4-pentylpyridinium)dodecane
[19] = system: Scedosporium apiospermum 1-003-056; assay: In vitro antifungal activity vs Amphotericin B; conditions: Table 2; listed as 1,12-bis(4-pentylpyridinium)dodecane
[20] = system: Scedosporium prolificans 1-003-040; assay: In vitro antifungal activity vs Amphotericin B; conditions: Table 2; listed as 1,12-bis(4-pentylpyridinium)dodecane
[21] = Table 2, listed as 1,12-bis(4-pentylpyridinium)dodecane

## CCCCCc1cc[n+](CCCCCCCCCCCC[n+]2ccc(CCCCC)cc2)cc1
C. neoformans ATCC 90112; Table 1
  MIC C. neoformans ATCC 90112: 2.7 µM
C. neoformans ATCC 90112; Table 1b
  MIC C. neoformans ATCC 90112: 2.75 µM
C. neoformans ATCC 90112; Table 1c
  MIC C. neoformans ATCC 90112: 2.75 µM
C. neoformans ATCC 90112; [21]
  In vitro antifungal activity, Cryptococcus neoformans ATCC 90112: 1.2 μg/ml and 2.2 μM
C. albicans ATCC 10231; Table 1
  MIC C. albicans ATCC 10231: 2.7 µM
C. albicans ATCC 10231; Table 1b
  MIC C. albicans ATCC 10231: 2.75 µM
C. albicans ATCC 10231; Table 1c
  MIC C. albicans ATCC 10231: 2.75 µM
C. albicans ATCC 10231; [21]
  In vitro antifungal activity, Candida albicans ATCC 10231: 0.6 μg/ml and 1.2 μM
C. albicans ATCC 90028
  MIC C. albicans ATCC 90028: 2.75 µM
C. krusei 04-202328
  MIC C. krusei 04-202328: 22 µM
C. krusei ATCC 6258
  MIC C. krusei ATCC 6258: 11 µM
C. krusei ATCC 9258
  MIC C. krusei ATCC 9258: 11 µM
[1]
  MIC C. parapsilosis 04-202398: 87.5 µM
[2]
  MIC C. parapsilosis ATCC 22019: 1.4 µM
C. glabrata 04-202345
  MIC C. glabrata 04-202345: 2.75 µM
C. tropicalis 04-202361
  MIC C. tropicalis 04-202361: 1.4 µM
C. neoformans 05-202523
  MIC C. neoformans 05-202523: 87.5 µM
C. gattii 05-200122
  MIC C. gattii 05-200122: 1.4 µM
A. fumigatus 05-203114
  MIC A. fumigatus 05-203114: 87.5 µM
A. fumigatus ATCC 204305
  MIC A. fumigatus ATCC 204305: 87.5 µM
A. flavus 05-203758
  MIC A. flavus 05-203758: 87.5 µM
A. flavus ATCC 204304
  MIC A. flavus ATCC 204304: 44 µM
A. terreus 05-202844
  MIC A. terreus 05-202844: 11 µM
S. prolificans 05-203060
  MIC S. prolificans 05-203060: 2.75 µM
S. apiospermum 05-203100
  MIC S. apiospermum 05-203100: 5.5 µM
[3]
  MIC Cunninghamella berth 99-12187: 87.5 µM
[4]
  MIC Absidia corymbifera 04-200170: >87.5 µM
[5]
  MIC Exophiala jeanselmei 03-200268: 1.4 µM
[6]
  MIC Exophiala spinifera 03-200803: 0.7 µM
[7]
  MIC Fusarium solani 04-203102: 87.5 µM
[8]
  MIC Paecilomyces lilacinus 05-200601: >87.5 µM
[9]
  MIC Rhizopus oryzae 05-203111: 2.75 µM
Epidermophyton floccosum
  MIC GM, Epidermophyton floccosum: 7.635 µg/mL
  MIC Range, Epidermophyton floccosum: 2 to 16 µg/mL
Microsporum canis
  MIC GM, Microsporum canis: 2.954 µg/mL
  MIC Range, Microsporum canis: 1 to 4 µg/mL
Microsporum cookie
  MIC GM, Microsporum cookie: 1.061 µg/mL
  MIC Range, Microsporum cookie: 0.5 to 2 µg/mL
Microsporum gypseum
  MIC GM, Microsporum gypseum: 2.408 µg/mL
  MIC Range, Microsporum gypseum: 1 to 4 µg/mL
[10]
  MIC50, Trichophyton mentagrophytes: 8 µg/mL
  MIC90, Trichophyton mentagrophytes: 16 µg/mL
  MIC GM, Trichophyton mentagrophytes: 9.007 µg/mL
  MIC Range, Trichophyton mentagrophytes: 2 to 32 µg/mL
Trichophyton rubrum
  MIC GM (geometric mean of the MICs), Trichophyton rubrum: 10.41 µg/mL
  MIC Range, Trichophyton rubrum: 4 to 16 µg/mL
Trichophyton rubrum; MIC at which 50% of the isolates were inhibited
  MIC50, Trichophyton rubrum: 8 µg/mL
Trichophyton rubrum; MIC at which 90% of the isolates were inhibited
  MIC90, Trichophyton rubrum: 16 µg/mL
Trichophyton soudanense
  MIC GM, Trichophyton soudanense: 14.54 µg/mL
  MIC Range, Trichophyton soudanense: 8 to 16 µg/mL
Trichophyton tonsurans
  MIC50, Trichophyton tonsurans: 2 µg/mL
  MIC90, Trichophyton tonsurans: 8 µg/mL
  MIC GM, Trichophyton tonsurans: 2.802 µg/mL
  MIC Range, Trichophyton tonsurans: 1 to 8 µg/mL
Trichophyton violaceum
  MIC GM, Trichophyton violaceum: 8.963 µg/mL
  MIC Range, Trichophyton violaceum: 1 to 32 µg/mL
[11]
  IC50: 12.5 µM
Escherichia coli 25922
  MIC Escherichia coli 25922: 5.9 μg/ml and 11 μM
[12]
  MIC MRSA (methicillin resistant S. aureus): 1.45 μg/ml and 2.7 μM
[13]
  MIC Pseudomonas aeruginosa 122: 86 μg/ml and 160 μM
[14]
  MIC Staphylococcus aureus 25923: 3.0 μg/ml and 5.5 μM
[15]
  MIC Streptococcus pneumonia 49619: 1.45 μg/ml and 2.7 μM
[16]
  MIC VRE (Vancomycin resistant Enterococcus): 5.9 μg/ml and 11 μM
[17]
  In vitro antifungal activity, Aspergillus terreus ATCC 03-232-378: 0.7 μg/ml and 1.2 μM
[18]
  In vitro antifungal activity, Fusarium solani 04-132-4207: 47 μg/ml and 88 μM
[19]
  In vitro antifungal activity, Scedosporium apiospermum 1-003-056: 1.5 μg/ml and 2.8 μM
[20]
  In vitro antifungal activity, Scedosporium prolificans 1-003-040: 0.75 μg/ml and 1.4 μM

Where “and” joins values, the source holds several entries; their conditions need not be identical. Equal entries are not always repeated.
